Results: PubChem BioAssay AID720488 (Milwaukee Institute for Drug Discovery, 2013)
The entries are a selection whose mix differs from that of the whole data set. The source made the active and inactive calls.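 How the source made its calls: active means compound fluorescence over control fluorescence at most 0.8, a quencher, or at least a set upper limit, an enhancer; inactive means ratio between 0.8 and the set upper limit.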

Assay: Cy5 fluorescence quenchers or enhancers, artefact control for HCV NS3 helicase inhibitor project, biochemical, ChemBridge library, Cy5 readout (AID 720488)
Conditions: Cy5-dT15 DNA with NS3h, at 100 µM, actives lie on both sides, signal over control mean, under 1 quenches

SMILES | fluorescence interference ratio
O=C(CF)NC(Sc1ccc(Cl)cc1)C(Cl)(Cl)Cl (centres undefined) | inactive: 1.06
Cc1ccc(SC(NC(=O)c2ccccc2)C(Cl)Cl)cc1 (centres undefined) | active: 0.761
COC(=O)NC(Sc1ccc(Cl)cc1)C(Cl)Cl (centres undefined) | active: 0.778
CCCCSP(=O)(OCC(C)C)OCC(C)C | inactive: 0.959
